Data from paper PMC6278315, “Microwave-Assisted Expeditious Synthesis of 2-Alkyl-2-(N-arylsulfonylindol-3-yl)-3-N-acyl-5-aryl-1,3,4-oxadiazolines Catalyzed by HgCl2 under Solvent-Free Conditions as Potential Anti-HIV-1 Agents” (Molecules, 2018).

System: HIV-1IIIB
Test: Syncytia assay (anti-HIV-1 activity)
Assay type: cell-based
Details: for TI (in vitro therapeutic index): CC50 value/EC50 value
Procedure: Cell line (C8166) and the laboratory-derived virus (HIV-1IIIB) were obtained from MRC, AIDS Reagent Project, London, UK. C8166 was maintainedin RPMI-1640 supplemented with 10% heat-inactivated newborn calf serum (Gibco, Grand Island, NY, USA). The cells used in all experiments were in log-phase growth. The 50% HIV-1IIIB tissue culture infectious dose (TCID50) in C8166 cells was determined and calculated by the Reed and Muench method. Virus stocks were stored in small aliquots at −70 °C.
In the presence of 100 μL various concentrations of 2-alkyl-2-(N-arylsulfonylindol-3-yl)-3-N-acyl-5-aryl-1,3,4-oxadiazolines, C8166 cells (4 × 10^5/mL) were infected with virus HIV-1IIIB at a multiplicity of infection (M.O.I) of 0.06. The final volume per well was 200 μL. Control assays were performed without the testing compounds in HIV-1IIIB infected and uninfected cultures. After 3 days of culture, the cytopathic effect (CPE) was measured by counting the number of syncytia. Percentage inhibition of syncytia formation was calculated and 50% effective concentration (EC50) was calculated. AZT (Sigma-Aldrich, St. Louis, MO, USA) was used as a positive control. Therapeutic index (TI) = CC50/EC50.

Structure (SMILES) | TI (in vitro therapeutic index) | further results
CC(=O)N1N=C(c2ccccc2)OC1(C)c1cn(S(=O)(=O)c2ccc(Cl)cc2)c2ccc(C#N)cc12 (stereo not drawn) [3a′, 2-Methyl-2-(N-p-chlorobenzenesulfonyl-5-cyanoindol-3-yl)-3-N-acetyl-5-phenyl-1,3,4-oxadiazolines] | 31.22 | TI value relative to that of 3z (TI ratio vs 3z): more than 10 times
CC(=O)N1N=C(c2ccccc2)OC1(C)c1cn(S(=O)(=O)c2ccc(C)cc2)c2ccc([N+](=O)[O-])cc12 (stereo not drawn) [3b′, 2-Methyl-2-(N-p-methylbenzenesulfonyl-5-nitroindol-3-yl)-3-N-acetyl-5-phenyl-1,3,4-oxadiazolines] | 13.94 | –
CC(=O)N1N=C(c2ccccc2)OC1(C)c1cn(S(=O)(=O)c2ccc(Cl)cc2)c2ccc([N+](=O)[O-])cc12 (stereo not drawn) [3c′, 2-Methyl-2-(N-p-chlorobenzenesulfonyl-5-nitroindol-3-yl)-3-N-acetyl-5-phenyl-1,3,4-oxadiazolines] | 8.89 | –
CCC1(c2cn(S(=O)(=O)c3ccccc3)c3ccccc23)OC(c2ccccc2)=NN1C(C)=O (stereo not drawn) [3d′, 2-Ethyl-2-(N-benzenesulfonylindol-3-yl)-3-N-acetyl-5-phenyl-1,3,4-oxadiazolines] | 5.18 | –
CC(=O)N1N=C(c2ccccc2)OC1c1cn(S(=O)(=O)c2ccc(C)cc2)c2ccccc12 (stereo not drawn) [3e′] | 0.97 | –
CC(=O)N1N=C(c2ccccc2)OC1c1cn(S(=O)(=O)c2cccc([N+](=O)[O-])c2)c2ccccc12 (stereo not drawn) [3f′] | 24.27 | TI value relative to that of 3k′ (TI ratio vs 3k′): more than 28 times; TI value relative to that of 3h′ (TI ratio vs 3h′): ~18 times
CC(=O)N1N=C(c2ccccc2)OC1c1cn(S(=O)(=O)c2ccc(C)cc2)c2cc(C)ccc12 (stereo not drawn) [3g′] | 3.59 | –
CC(=O)N1N=C(c2ccccc2)OC1c1cn(S(=O)(=O)c2ccc(Cl)c([N+](=O)[O-])c2)c2ccccc12 (stereo not drawn) [3h′] | 1.36 | –
CC(=O)N1N=C(c2ccccc2)OC1c1cn(S(=O)(=O)c2cccc([N+](=O)[O-])c2)c2cc(C)ccc12 (stereo not drawn) [3i′] | 39.59 | TI value relative to that of 3j′ (TI ratio vs 3j′): ~220 times; TI value relative to that of 3l′ (TI ratio vs 3l′): more than 12 times
CC(=O)N1N=C(c2ccccc2)OC1c1cn(S(=O)(=O)c2ccc(Cl)c([N+](=O)[O-])c2)c2cc(C)ccc12 (stereo not drawn) [3j′] | 0.18 | –
CC(=O)N1N=C(c2ccccc2)OC1c1cn(S(=O)(=O)c2ccc(Cl)cc2)c2ccccc12 (stereo not drawn) [3k′] | 0.86 | –
CC(=O)N1N=C(c2ccccc2)OC1c1cn(S(=O)(=O)c2ccc(Cl)cc2)c2cc(C)ccc12 (stereo not drawn) [3l′] | 3.16 | –
COc1ccc(S(=O)(=O)n2cc(C3OC(c4ccccc4)=NN3C(C)=O)c3ccccc32)cc1 (stereo not drawn) [3m′] | 0.55 | –
COc1ccc(S(=O)(=O)n2cc(C3OC(c4ccccc4)=NN3C(C)=O)c3ccc(C)cc32)cc1 (stereo not drawn) [3n′] | 0.68 | –
CC(=O)N1N=C(c2ccccc2)OC1c1cn(S(=O)(=O)c2ccc(C)cc2)c2ccc(C#N)cc12 (stereo not drawn) [3o′] | 8.36 | –
CC(=O)N1N=C(c2ccccc2)OC1c1cn(S(=O)(=O)c2cccc([N+](=O)[O-])c2)c2ccc(C#N)cc12 (stereo not drawn) [3p′] | 2.12 | –
CCC(=O)N1N=C(c2ccccc2)OC1c1cn(S(=O)(=O)c2ccc(C)cc2)c2ccccc12 (stereo not drawn) [3q′] | 26.01 | TI value relative to that of 3e′ (TI ratio vs 3e′): ~27 times
CCC(=O)N1N=C(c2ccccc2)OC1c1cn(S(=O)(=O)c2ccc(C)cc2)c2ccc(C#N)cc12 (stereo not drawn) [3r′] | 24.51 | –
CC(=O)N1N=C(c2ccccc2)OC1(C)c1cn(S(=O)(=O)c2ccccc2)c2cc(C)ccc12 (stereo not drawn) [3y, 2-Methyl-2-(N-benzenesulfonyl-6-methylindol-3-yl)-3-N-acetyl-5-phenyl-1,3,4-oxadiazolines] | > 32.68 | –
CC(=O)N1N=C(c2ccccc2)OC1(C)c1cn(S(=O)(=O)c2ccccc2)c2ccc(C#N)cc12 (stereo not drawn) [3z, 2-Methyl-2-(N-benzenesulfonyl-5-cyanoindol-3-yl)-3-N-acetyl-5-phenyl-1,3,4-oxadiazolines] | 3.01 | –
Cc1cn([C@H]2C[C@H](N=[N+]=[N-])[C@@H](CO)O2)c(=O)[nH]c1=O [AZT, 3′-azido-3′-deoxythymidine, reference compound] | 690,035 | –
